The values below come from patent publication US20250276998A1, “NOVEL DAROBACTIN DERIVATIVES” (Helmholtz-Zentrum Fur Infektionsforschung GmbH, priority 2021, published 2025).

This data set is described as follows: LC-MS AUC of mass peak of derivative in crude extract relative to D9. The conditions noted are these: relative amount of derivative vs D9.

For `C[C@@H]1NC(=O)[C@H]2NC(=O)[C@H](CC(N)=O)NC(=O)[C@@H](N)Cc3c[nH]c4c(cccc34)O[C@@H]2c2c[nH]c3cc(ccc23)[C@H](CCCN)[C@@H](C(=O)N[C@@H](CO)C(=O)N[C@@H](Cc2c[nH]c3ccccc23)C(=O)O)NC1=O` [Darobactin 30], the “AUC ratio (derivative/D9)” value is given as 0.29. Consider `C[C@@H](O)[C@@H]1NC(=O)[C@H]2NC(=O)[C@H](CC(N)=O)NC(=O)[C@@H](N)Cc3c[nH]c4c(cccc34)O[C@@H]2c2c[nH]c3cc(ccc23)C(CCNC(=N)N)[C@@H](C(=O)N[C@@H](CCCNC(=N)N)C(=O)N[C@@H](Cc2c[nH]c3ccccc23)C(=O)O)NC1=O` (some centres unmarked) [Darobactin 39], for which the “AUC ratio (derivative/D9)” value is on record as 0.52x.
